The values that follow come from US9096492B2, “Hydrated N-fullerene amino acids, method for producing the latter, and pharmaceutical compositions on the basis thereof” (priority 2011, dated 2015).

Assay [1] relates to A/Vladivostok/2/09 (H1N1) influenza virus. The format is in vivo, mice.
The test system of assay [2] is A/Puerto Rico/8/34 (H1N1) influenza virus. The class given is in vivo, mice.

Like-named read-outs stand apart in the source and are kept apart here.

Turning to “N-fullerene tris(δ-aminocaproic acid) hydrate [Agent 1]”, the “Index of protection, %” value is recorded as 34.7% in assay [1] (30 mg/kg, Summary dose, n=25); 30.6% in assay [1] (30 mg/kg, […], n=12); 43.6% in assay [1] (30 mg/kg, […], n=13); 36.4% in assay [1] (100 mg/kg, Summary dose, n=22); 26.7% in assay [1] (100 mg/kg, […], n=10); 44.4% in assay [1] (100 mg/kg, […], n=12). For the same substance, the “Index of protection, %” value in assay [1] (300 mg/kg, Summary dose, n=26) stood at 64.1%; in assay [2] (30 mg/kg, Summary dose, n=29) it was 14.2%; in assay [2] (30 mg/kg, […], n=14), 23.5%; in assay [2] (30 mg/kg, […], n=15), 13.3%; in assay [2] (100 mg/kg, Summary dose, n=30), 37.8%; in assay [2] (300 mg/kg, Summary dose, n=29) it was 51.7%. Besides, the “Index of protection, %” value in assay [2] (300 mg/kg, […], n=14) was 49.4%; in assay [2] (300 mg/kg, […], n=15) it was 57.1%.
